Compound potency records, mixed from different reports. Data source: NIAID ChemDB in PubChem.

All rows: whole-cell or culture tests; agent: Mycobacterium tuberculosis

Neighbouring rows are from separate reports. Percent inhibition refers to the dose given; in toxicity tests it is the harm to the cells. MIC bound: limit read from a one-dose screen. ECn is the concentration giving n% inhibition of infection, replication or growth. Two numbers with a dash give a range or band. A number after MIC or MFC names an inhibition level or a share of isolates. An empty or dashed field is not shown.

smiles,method,cell line,mutations,strain or isolate,dose,measure,conditions,value
CC(CO)[C@H]1OC(=O)C=C2[C@@]13O[C@@H]3[C@H]1OC(=O)[C@@]3(C)[C@H]4O[C@H]4C[C@@]2(C)[C@@H]13,BACTEC,-,-,H37Rv,12.5 µg/mL,inhibition,-,0%
CC1=C(C(=O)Nc2ccc(F)c(Cl)c2)C(c2ccccc2[N+](=O)[O-])C(C(=O)Nc2ccc(F)c(Cl)c2)=C(C)N1,-,-,-,H37Rv,-,MIC,-,>6.25 µg/mL
Clc1ccc(CCNc2ncnc3ccsc23)cc1,luminescence,-,-,H37Rv,-,MIC50,-,>50 µM
COc1c(OCc2ccccc2)cc2oc3cc(OCc4ccccc4)c(CCC(C)C)c(O)c3c(=O)c2c1CCC(C)C,resazurin,-,-,H37Ra,-,MIC,-,12.5 µg/mL
Fc1cc(Nc2ncnc3ccccc23)ccc1N1CCc2sccc2C1,luminescence,-,-,H37Rv,-,MIC50,-,>20 µM
S=C1N(c2ccccc2)CCN1c1ccccc1,BACTEC,-,-,H37Rv,-,MIC bound,-,>12.5 µg/mL
FC(F)(F)c1cccc(Oc2ccc(CNc3ncnc4ccsc34)cn2)c1,luminescence,-,-,H37Rv,-,MIC50,-,>40 µM
CC(C)c1cnc(C(=O)/C=C/c2ccc(Br)cc2)cn1,absorbance,-,-,H37Rv,-,MIC,-,25 µg/mL
COc1c(OC(C)=O)cc2oc3cc(O)c(CCC(C)C)c(O)c3c(=O)c2c1CCC(C)C,resazurin,-,-,H37Ra,-,MIC,-,6.25 µg/mL
FC(F)(F)c1ccc(Oc2ccc(Nc3ncnc4cc(Br)ccc34)cc2)cc1,luminescence,-,-,H37Rv,-,MIC50,-,>20 µM
CCCCc1ccc2nc(C)cc(NN)c2c1,-,VERO,-,H37Rv,-,MIC,-,6.25 µg/mL
CCCCCCCCCCN=c1cc2n(-c3ccc(Cl)cc3)c3ccccc3nc-2cc1Nc1ccc(Cl)cc1,-,-,-,H37Rv,-,MIC,-,1.33 µg/mL
NC(=O)c1cnc(C(=O)c2ccc(O)cc2)cn1,resazurin,-,-,H37Rv,-,EC50,-,>6.25 µg/mL
CN(C(=O)OCc1ccccc1)c1ccc(C(=O)NC(CCC(=O)O)C(=O)O)cc1,BACTEC,-,-,H37Rv,12.5 µg/mL,inhibition,-,93%
Cc1cc(C)nc(Oc2ccc(Nc3ncnc4ccccc34)cc2)n1,luminescence,-,-,H37Rv,-,MIC50,-,>20 µM
NC(=S)c1cnc(C(=O)c2ccc(Cl)cc2)cn1,resazurin,-,-,H37Rv,-,EC50,-,<6.25 µg/mL
COc1cc2oc3c(C)c(=O)cc4oc(-c5ccccc5)cc(c2c2c1CC[C@@H](c1ccccc1)O2)c43,resazurin,-,-,H37Rv,6.25 µg/mL,inhibition,-,98%
CCCCCc1cnc(C(=O)/C=C/c2ccc(Br)cc2)cn1,absorbance,-,-,H37Rv,-,MIC,-,>50 µg/mL
CCOc1cc2oc3cc(O)c(CCC(C)C)c(O)c3c(=O)c2c(CCC(C)C)c1OC,resazurin,-,-,M6,-,MIC,-,1.56 µg/mL
NC(=O)c1cnc(C(=O)c2ccc(Cl)cc2)cn1,resazurin,-,-,H37Rv,6.25 µg/mL,inhibition,-,16%
CCCCCc1cc(OC)c2ccccc2n1,-,-,-,MT3,-,MIC,-,12.5 µg/mL
CC(=O)c1c(OCCCCBr)cc2oc3cc(O)c(CCC(C)C)c(O)c3c(=O)c2c1CCC(C)C,resazurin,-,-,H37Ra,-,MIC,-,12.5 µg/mL
CO[C@@]12[C@H](COC(N)=O)C3=C(C(=O)C(C)=C(NCCSSCCNC4=C(C)C(=O)C5=C(C4=O)[C@@H](COC(N)=O)[C@@]4(OC)[C@H]6N[C@H]6CN54)C3=O)N1C[C@@H]1N[C@@H]12,BACTEC,-,-,-,0.5 µM,inhibition,-,42%
CC(C)(C)c1ccc(CCOc2ncnc3ccsc23)cc1,luminescence,-,-,H37Rv,-,MIC50,-,>50 µM
O=C(O)c1cnc(C(=O)c2ccccc2)cn1,resazurin,-,-,H37Rv,-,EC50,-,>6.25 µg/mL
NNC(=O)c1ccncc1,absorbance,-,-,H37Rv,-,MIC,-,0.1–0.39 µg/mL
CO[C@H]1/C=C/O[C@@]2(C)Oc3c(C)c(O)c4c(O)c(c5c(c4c3C2=O)NC2(CCN(CC(C)C)CC2)N=5)=NC(=O)/C(C)=C\C=C\[C@H](C)[C@H](O)[C@@H](C)[C@@H](O)[C@@H](C)[C@H](OC(C)=O)[C@@H]1C,-,-,-,Strain 67 (L533P),-,MIC,-,0.25 µg/mL
CC1=C(C(=O)Nc2ccc(C)cc2)C(c2c3ccccc3cc3ccccc23)C(C(=O)Nc2ccccc2F)=C(C)N1,-,-,-,H37Rv,-,MIC,-,>6.25 µg/mL
CC(=O)Oc1c(C)c2c(O)c3c1C1=C(OCOC1=C(C)C3=O)/C(C)=C/[C@@](C)(O)[C@H](O)[C@@H](C)[C@@H](O)[C@H](C(=O)O)[C@H](O)[C@H](C)C(O)[C@H](C)/C=C\C=C(/C)C(=O)N2,BACTEC,-,-,H37Rv,-,MIC bound,-,≤128 µg/mL
COc1c(N2CCNC(C)C2)c(F)cc2c(=O)c(C(=O)O)cn(C3CC3)c12,-,-,-,158 strains,-,MIC,-,>16 µg/mL
COC1=C[C@@H]2C3=C([C@@H]2C1=O)[C@@H](NC(C)=O)CCc1cc(OC)c(OC)c(OC)c13,BACTEC,-,-,H37Rv,12.8 µg/mL,inhibition,-,15%
CCCCOc1ccc2nccc(NN)c2c1,-,-,-,H37Rv,-,EC90,inside macrophages,>1 µg/mL
Cc1ccc(CCNc2ncnc3ccsc23)cc1,luminescence,-,-,H37Rv,-,MIC50,-,>50 µM
CC1COc2c(N3CCN(C)C(c4ccccc4)C3)c(F)c([N+](=O)[O-])c3c(=O)c(C(=O)O)cn1c23,agar,-,-,-,-,MIC99,-,3.23 µM
CCCOc1cc2oc3cc(O)c(CCC(C)C)c(O)c3c(=O)c2c(CCC(C)C)c1OC,resazurin,-,MDR,M-3,-,MIC,-,3.12 µg/mL
C/C=C/c1ccc2oc(-c3ccc(OC4OC(C)C(O)C(O)C4O)cc3)c(C)c2c1,BACTEC,-,-,H37Rv,12.5 µg/mL,inhibition,-,77%
CC(=O)NC[C@H]1CN(c2ccc(N3CCOCC3)c(F)c2)C(=O)O1,resazurin,-,-,ss18b,-,MIC,-,0.4 µg/mL
COc1cccc(NC(=O)C2=C(C)NC(C)=C(C(=O)Nc3cccc(OC)c3)C2c2ccc(Cl)cc2)c1,-,-,-,H37Rv,-,MIC,-,>12.5 µg/mL
FC(F)(F)Oc1ccc(CCNc2ncnc3cc(Cl)ccc23)cc1,luminescence,-,-,H37Rv,-,MIC50,-,>20 µM
Cc1cc(NN)c2c(Cl)cc(Cl)cc2n1,-,VERO,-,H37Rv,12.5 µg/mL,inhibition,-,87%
COc1c(OCCCCBr)cc2oc3cc(O)c(CCC(C)C)c(O)c3c(=O)c2c1CCC(C)C,resazurin,-,-,H37Ra,-,MIC,-,12.5 µg/mL
CCOc1ccc2c(c1)n([O-])c1cc(Br)ccc1[n+]2=O,-,-,-,EMB-R,-,MIC,-,1.6 µg/mL
CN1c2ccccc2CCC1CCc1ccc2c(c1)OCO2,-,-,-,MT5,-,MIC,-,>100 µg/mL
FC(F)(F)Oc1ccc(CNc2ncnc3ccsc23)cc1,luminescence,-,-,H37Rv,-,MIC50,-,>50 µM
CCN(CC)c1c([N+](=O)[O-])c(=O)nc2ccccn12,resazurin,-,-,H37Rv,-,MIC bound,-,>6.25 µg/mL
COc1cc2c(cc1OC)CN(c1c(F)cc3c(=O)c(C(=O)O)cn4c3c1OCC4C)CC2,agar,-,-,MDR-TB,-,MIC99,-,3.43 µM
NC(=O)c1cnc(C(=O)c2ccccc2)cn1,resazurin,-,-,H37Rv,6.25 µg/mL,inhibition,-,8%
c1ccc(-c2cc3cc(Nc4ncnc5ccccc45)ccc3o2)cc1,luminescence,-,-,H37Rv,-,MIC50,-,>20 µM
CCOC(=O)C1=C(C(=O)OCC)C(O)(C(=O)OCC)C(C(=O)OCC)O1,BACTEC,-,-,H37Rv,-,MIC bound,-,>12.5 µg/mL
CC1CN(c2c(F)c([N+](=O)[O-])c3c(=O)c(C(=O)O)cn4c3c2OCC4C)CC(C)O1,agar,-,-,MDR-TB,-,MIC99,-,3.7 µM
Clc1ccc(Nc2cc3nc4ccccc4n(-c4ccc(Cl)cc4)c-3cc2=NC2CCCCC2)cc1,-,-,-,H37Rv,-,MIC,-,0.5 µg/mL
CCCc1cnc(C(=O)/C=C/c2ccccc2Br)cn1,absorbance,-,-,H37Rv,-,MIC,-,12.5 µg/mL
Cc1ccc(Oc2ccc(Nc3ncnc4cc(F)ccc34)cc2)cc1,luminescence,-,-,H37Rv,-,MIC50,-,>20 µM
O=C(O)c1cc(=O)[nH]c(=S)[nH]1,BACTEC,-,-,H37Rv,-,MIC bound,-,>12.5 µg/mL
CC(C)(C)c1cnc(C(=O)/C=C/c2ccccc2Cl)cn1,absorbance,-,-,H37Rv,-,MIC,-,3.13 µg/mL
Fc1ccc2c(Nc3ccc(N4CCC5(CC4)CCN(c4ccc(C(F)(F)F)cc4)CC5)cc3)ncnc2c1,luminescence,-,-,H37Rv,-,MIC50,-,>50 µM
COc1cccc(NC(=O)C2=C(C)NC(C)=C(C(=O)Nc3cccc(OC)c3)C2c2ccccc2S)c1,-,-,-,H37Rv,-,MIC,-,>12.5 µg/mL
NC(=O)c1cnc(C(=O)c2ccccc2O)cn1,resazurin,-,-,H37Rv,-,EC50,-,>6.25 µg/mL
O=C(/C=C/c1ccccc1F)c1cnccn1,absorbance,-,-,H37Rv,-,MIC,-,12.5 µg/mL
CCN(CC)c1ccc(/C=N/Nc2cc(C)nc3ccc(C4CCCCC4)cc23)cc1,-,VERO,-,H37Rv,12.5 µg/mL,inhibition,-,100%
CC(C)=CCC/C(C)=C/CNc1ncnc2ccccc12,luminescence,-,-,H37Rv,-,MIC50,-,>40 µM
COC(=O)c1ccc(SCC(=O)c2ccc([N+](=O)[O-])o2)cc1,BACTEC,-,-,H37Rv,-,MIC,-,≥12.5 µg/mL
Clc1ccc(-c2nc3ccc(Nc4ncnc5ccccc45)cc3o2)cc1,luminescence,-,-,H37Rv,-,MIC50,-,>50 µM
C/C(CC(=O)Nc1cccc([N+](=O)[O-])c1)=N\NC(=O)C[n+]1ccccc1.[Cl-],BACTEC,-,-,H37Rv,12.5 µg/mL,inhibition,-,6%
NNC(=O)c1ccncc1,resazurin,-,-,M8,-,MIC,-,>2 µg/mL
N#Cc1cnc(C(=O)c2ccc(O)cc2)cn1,resazurin,-,-,H37Rv,-,EC50,-,>6.25 µg/mL
c1ccc2c(c1)ccc1c2nc2c3ccccc3[nH]n12,BACTEC,-,-,H37Rv,-,MIC,-,0.39 µg/mL
FC(F)(F)c1cccc(Oc2ccc(Nc3ncnc4ccoc34)cc2)c1,luminescence,-,-,H37Rv,-,MIC50,-,>20 µM
O=C(O)C1CC(=O)N(Cc2ccccc2)C1,resazurin,-,-,H37Rv,-,MIC bound,-,>6.25 µg/mL
CC1(C)C=Cc2cc3ccc(=O)oc3cc2O1,agar / visual reading,-,-,-,-,MIC,-,220 µg/mL
CO[C@H]1/C=C/O[C@@]2(C)Oc3c(C)c(O)c4c(O)c(c(/C=N/N5CCN(C)CC5)c(O)c4c3C2=O)NC(=O)/C(C)=C\C=C\[C@H](C)[C@H](O)[C@@H](C)[C@@H](O)[C@@H](C)[C@H](OC(C)=O)[C@@H]1C,resazurin,-,MDR,M21,-,MIC,-,>2 µg/mL
CC1(C)C=Cc2c(cc3oc(-c4ccc(O)cc4)cc(=O)c3c2O)O1,agar / visual reading,-,-,-,-,MIC,-,110 µg/mL
O=C(O)c1nc(NCCc2ccc(OC(F)(F)F)cc2)c2ccc(F)cc2n1,luminescence,-,-,H37Rv,-,MIC50,-,>20 µM
C/C=C(\C)c1cc(=O)c2c(C)cc3c(c2o1)[C@](OC)(OC(C)=O)c1c(O)c([C@H]2C[C@](C)(N(C)C)[C@H](OC(C)=O)[C@H](C)O2)cc([C@H]2C[C@@H](N(C)C)[C@H](OC(C)=O)[C@@H](C)O2)c1C3=O,BACTEC,-,-,H37Rv,-,MIC,-,≥12.8 µg/mL
CC(C)Oc1ccc(-c2ccc(Nc3ncnc4ccccc34)cc2)cc1,luminescence,-,-,H37Rv,-,MIC50,-,>10 µM
CC1=C(C(=O)Nc2ccccc2F)C(c2ccccc2)C(C(=O)Nc2ccccc2F)=C(C)N1,-,-,-,H37Rv,-,MIC,-,>6.25 µg/mL
NC(=O)NN=C1CSSC1,BACTEC,-,-,H37Rv,-,MIC bound,-,≤12.5 µg/mL
CC1=C(C(=O)Nc2ccc([N+](=O)[O-])cc2)C(c2cccc(Br)c2)C(C(=O)Nc2ccc([N+](=O)[O-])cc2)=C(C)N1,-,-,-,H37Rv,-,MIC,-,>6.25 µg/mL
Fc1cc(CNc2ncnc3ccccc23)ccc1N1CCN(c2ccc(C(F)(F)F)cn2)CC1,luminescence,-,-,H37Rv,-,MIC50,-,>50 µM
CCCCc1cnc(C(=O)/C=C/c2ccc(Cl)cc2)cn1,absorbance,-,-,H37Rv,-,MIC,-,>50 µg/mL
CC(C)CC(NC(=O)C(=O)N[C@@H](CC(C)C)C(=O)O)C(=O)O,-,-,-,H37Rv,6.25 µg/mL,inhibition,-,-4%
Clc1ccc(Nc2cc3nc4ccccc4n(-c4ccc(Cl)cc4)c-3cc2=NC2CCCCCC2)cc1,-,-,-,H37Rv,-,MIC,-,0.5 µg/mL
Nc1nc(NCc2ccccc2)cc(=O)[nH]1,BACTEC,-,-,H37Rv,12.5 µg/mL,inhibition,-,5%
FC(F)(F)c1ccc(Oc2ccc(Nc3ncnc4cc[nH]c34)cc2)cc1,luminescence,-,-,H37Rv,-,MIC50,-,>20 µM